Share of PSTVd loop 6 variants by leaf site

Values reported by Wu et al. 2024 (doi:10.1371/journal.ppat.1012142).

PSTVd intermediate strain, loop 6: wild type UGACCGCGAG, pool pattern UNNNCGNNNG; upper and lower strand joined, each 5' to 3', the first 5 letters being the upper strand, closing pairs included.

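A pool of all variants was put on leaves of three Nicotiana benthamiana plants. Progeny were sequenced from the inoculated region (day 5), the margin of the inoculated leaf (day 10) and systemic leaves (day 12).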

Numbers give reads per thousand; 0 = not seen among the reads, higher = more abundant.
Each value is the mean of three plants.
"Pool" is the share in the plasmid pool used as inoculum, on the same scale.
The inoculated region was read from the minus strand, the other sites from the plus strand.
IR is the inoculated region, LM the leaf margin, Sys the systemic leaves.
Samples held 36,220 to 57,551 reads, so the smallest values rest on one or two reads.
The authors trace changes outside the varied positions to PCR and sequencing errors or to mutation in the plant; presence does not show that a variant is infectious alone.
Wild type was 20.7 per thousand in the pool and the most common sequence in every sample (inoculated region 195, 198, 203; leaf margin 629, 591, 734; systemic leaves 942, 870, 868).

sequence,pool,IR,LM,Sys
UAAUCGCCUG,0.301,0.0708,0.0253,0
UACCCGUUCG,0.196,0.0946,0.0169,0
UACGCGACGG,0.183,0.0835,0,0
UAGGCGAUAG,0.275,0.113,0.103,0
UAGUCGUGCG,0.105,0.101,0.0247,0
UAUCCUCGAG,0.0131,0.00579,0,0
UAUGCGAUUG,0.418,0.125,0,0.00684
UAUUCGCCCG,0.301,0.0965,0.0309,0
UCAACGGAUG,0.157,0.0896,0.0184,0.0127
UCACCGAGAG,0.183,0.669,0.0796,0
UCAGCGAUGG,0.196,0.0655,0,0
UCCACGGUGG,0.288,0.114,0.00773,0
UCCGCGAUUG,0.275,0.0605,0.00773,0
UCGACGUACG,0.170,0.0712,0.00920,0
UCUCCGGUGG,0.144,0.138,0.00841,0
UCUGCGGGAG,0.222,0.0476,0,0
UCUUCGGUGG,0.418,0.106,0.320,0
UGCCCGGAGA,0.0131,0,0,0
UGCCCGUCUG,0.183,0.0832,0,0
UGCUCGAAUG,0.196,0.119,0.00920,0
UGGACGCCAG,0.497,0.172,0.0387,0
UGGACGCUAG,0.131,0.108,0.0169,0
UGGACGCUUG,0.327,0.119,0.00773,0
UGGUCGGUGG,0.183,0.0599,0.00773,0
UGUACGACGG,0.222,0.107,0.0232,0
UGUUCGACAG,0.340,0.143,0.00920,0
UUAGCGAAUG,0.301,0.0652,0,0
UUAUCGUCGG,0.366,0.0891,0.00773,0
UUAUCUGUGG,0.0131,0,0,0
UUCACGUCGG,0.301,0.119,0,0
UUGCCGACCG,0.235,0.131,0,0
UUGGCGCUAG,0.301,0.107,0.00773,0
UUGUCCUGUG,0.0131,0,0,0
UUGUCGCUCG,0.327,0.113,0,0
UUUCCGAGUG,0.248,0.131,0.0464,0
UUUGCGCAUG,0.222,0.132,0,0
UUUUCGGAUG,0.144,0.0594,0.00773,0
UUUUCGGGCG,0.105,0.102,0.00920,0
UUUUCGUCUG,0.288,0.0586,0.00773,0

The first 5 entries again:

| sequence | pool | IR | LM | Sys |
|---|---|---|---|---|
| UAAUCGCCUG | 0.301 | 0.0708 | 0.0253 | 0 |
| UACCCGUUCG | 0.196 | 0.0946 | 0.0169 | 0 |
| UACGCGACGG | 0.183 | 0.0835 | 0 | 0 |
| UAGGCGAUAG | 0.275 | 0.113 | 0.103 | 0 |
| UAGUCGUGCG | 0.105 | 0.101 | 0.0247 | 0 |